Experimental data taken from PMC9271048, “Probing strigolactone perception mechanisms with rationally designed small-molecule agonists stimulating germination of root parasitic weeds” (Nature Communications, 2022).

Amino acid sequences for entries named in this document (tags omitted). Residues count along the entry.
UniProt A0A0M3PNA2, 1-271: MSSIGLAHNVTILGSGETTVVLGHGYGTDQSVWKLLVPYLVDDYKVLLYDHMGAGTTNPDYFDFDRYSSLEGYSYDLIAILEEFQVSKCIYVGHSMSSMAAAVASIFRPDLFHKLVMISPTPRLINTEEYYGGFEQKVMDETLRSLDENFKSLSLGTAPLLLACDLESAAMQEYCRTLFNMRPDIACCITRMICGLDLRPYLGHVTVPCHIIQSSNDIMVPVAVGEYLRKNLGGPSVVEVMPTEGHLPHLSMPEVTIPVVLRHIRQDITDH

Key:
P. aegyptiaca seeds = assay: P. aegyptiaca seed germination assay; conditions: Supplementary Table 1; compounds tested at 10 μM; means ± SD, n = 3
Experimental: P. aegyptiaca seeds were harvested from Xinjiang province, China in 2017. The seeds were surface sterilized using 1% NaClO solution for 2 min and then washed with distilled water six times. For seed germination assay, about 20 pieces of glass fiber-filter paper discs (15 mm diameter, Whatman GF/B) were placed separately on two layers of filter papers (9 cm diameter, Whatman) in a Petri dish. Five milliliters of distilled water was added to each Petri dish to wet the papers. Approximately 40–90 sterilized seeds were spread onto each glass fiber-filter paper disc. After the seeds were conditioned in the dark at 25 °C for 4 days[48], glass fiber-filter paper discs were blotted dry on filter papers (9 cm) and transferred to the wells of 24-well cell culture plates. The testing compounds were dissolved in acetone and diluted with H2O (VH2O/Vacetone = 999/1) just before use[49]. rac-GR24 and 1‰ acetone solution were used as positive and negative controls, respectively. One hundred microliters of the test solution was added to each well of the plates, and all treatments were performed in three biological repeats. The plates were sealed and incubated in the dark at 25 °C for a week. The experiments were performed at least three times. The germinated seeds were observed by using an electronic magnifier at ×20 magnification.

ShHTL7 [1] = biological target: T1, ShHTL7 (Striga hermonthica, UniProt A0A0M3PNA2); conditions: read-out: KD (SPR); recombinant ShHTL7 immobilized on CM5 chip, 25 °C
ShHTL7 [2] = biological target: T1, ShHTL7; assay: Competitive inhibition of ShHTL7 with Yoshimulactone Green (YLG) as substrate; conditions: read-out: IC50 (Supplementary Table 1); YLG used as the substrate; means ± SD, n = 3
Experimental: Based on the structural feature of the lead compound 2h, we selected three regions to perform further modification (Supplementary Fig. 6), to try to further improve bioactivity. Insertion of a carbonyl group between the bicyclo[2.2.1]hept-5-en-2-yl group and the piperazine ring was detrimental to binding affinity (Supplementary Fig. 6, region A). Removal of an oxygen atom in region B was found unfavorable to binding affinity as well. Therefore, we focused on modifying the benzene ring (region C) for 2h. A series of compounds with different groups at region C was synthesized (Supplementary Scheme 1). […] The KD values of 3d, 3e, 3f, and 3g were 1.86, 0.65, 0.18, and 0.47 μM, respectively. […] As SPR just measures the binding ability, another independent assay by using Yoshimulactone Green (YLG) as the fluorescent substrate was performed to determine the half-maximal inhibitory concentration (IC50) of these compounds against ShHTL7[22].
According to the reported methods[22],[28], the competitive inhibition of SL receptors (ShHTLs, AtD14, and PaKAI2s) activity by small molecules was performed by using YLG as the substrate at 25 °C. The excitation and emission wavelengths of YLG are 480 and 520 nm, respectively. We used a fluorescence spectrophotometer (CARY Eclipse) to detect the fluorescence intensity change of YLG during the enzymatic hydrolysis assay process. All the testing compounds and YLG were dissolved in DMSO and prepared as stock solutions just before use. A total of 100 μL reaction mixture, which consisted of 4–6 μg recombinant proteins, 3 μM YLG in reaction buffer (100 mM HEPES, 150 mM NaCl, pH 7.0), and 0.0256–400 μM compounds were added to a 96-well black plate (Thermo). The changes of fluorescence at 520 nm of each well were recorded every 1 min for 30 min. Using the reaction mixture without adding enzyme and tested compounds as the background control. After subtracting the background hydrolysis, a linear fluorescence increase in 8 min was used for further inspection. The IC50 values were determined via fitting relative inhibition percentages with the varying concentrations of compounds in Microsoft Excel.

Row | SMILES | P. aegyptiaca germination(%) (P. aegyptiaca seeds) | Kd (ShHTL7 [1]) | IC50 (ShHTL7 [2])
1 | Cc1cc(Br)ccc1OCC(=O)N1CCN(CC2CC3C=CC2C3)CC1 (single isomer, unassigned) [(2R)-3f] | 15.1% | 480 nM | 5670 nM
2 | O=C(COc1c(F)c(F)c(F)c(F)c1F)N1CCN(CC2CC3C=CC2C3)CC1 (single isomer, unassigned) [(2R)-3g] | 9.1% |  | 130 nM
3 | Cc1cc(Br)ccc1OCC(=O)N1CCN(CC2CC3C=CC2C3)CC1 (single isomer, unassigned) [(2S)-3f] | 6.7±3.4% | 1.28 nM | 6400 nM
4 | O=C(COc1c(F)c(F)c(F)c(F)c1F)N1CCN(CC2CC3C=CC2C3)CC1 (single isomer, unassigned) [(2S)-3g] | 9.6% |  | 2040 nM
